PubChem BioAssay AID1259414 | Drosophila RNAi Screening Center – 2018
The screen tested about 24,000 reagents; shown is a random part of those with a known target gene and a result. In the full data, about 1,210 (5%) got an active call. 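Inactive calls also include excluded dsRNAs with several or no targets, genes unexpressed in JW18, and well A1, regardless of score.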 Reagents against one gene are numbered here. Names joined by + are all predicted targets of the reagent.

- Purpose: 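Host factors increasing or decreasing Wolbachia levels in cultured fly cells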 (primary screen)
- Cells: Drosophila JW18 cells infected with Wolbachia
- Reagents: long dsRNA against Drosophila genes, 0.25 µg dsRNA per well of a 384-well plate
- Timing: 5 days
- Conditions: cells persistently infected with Wolbachia before knock-down; no added drug
- Detection: 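Automated imaging of bacterial rRNA staining divided by host cell count, reported as plate-normalised robust z-score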
- Direction: Wolbachia per cell robust z: higher = more Wolbachia per host cell than the plate typical
- Active means: 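Active if absolute robust z reaches 1.5 in two or more of three replicates, leaving out multi- or no-target dsRNAs, genes unexpressed in JW18 and A1 wells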

no.	gene	reagent	Wolbachia per cell robust z, rep 1	Wolbachia per cell robust z, rep 2	Wolbachia per cell robust z, rep 3	activity call
1	Rrp46	1	-1.06	-2.56	-0.319	inactive
2	gnu	1	-0.207	-0.559	0.398	inactive
3	Dhc93AB	1	-0.828	-1.09	-1.24	inactive
4	Dhc93AB	2	-0.38	-0.743	0.11	inactive
5	CG14417	1	0.56	0.298	0.275	inactive
6	CG1440	1	0.934	1.12	-0.926	inactive
7	Wdr81	1	-5.62	1.05	-6.93	active
8	Wdr81	2	-4.09	0.538	-0.907	inactive
9	CG9855	1	0.42	1.74	1.13	inactive
10	CG9855	2	0.702	-0.0985	-0.498	inactive
11	CG9855	3	0.356	-4.27	-0.489	inactive
12	CG15211	1	0.0785	0.0611	-0.411	inactive
13	Orco	1	1.25	0.82	0.989	inactive
14	Orco	2	-1.01	-1.17	-0.614	inactive
15	Pbgs	1	-2.48	-0.394	-0.17	inactive
16	ric8b + ric8a	1	0.607	0.466	0.481	inactive
17	CG17806	1	-1.76	0.292	-0.0567	inactive
18	CG4669	1	0.0927	-0.112	0.199	inactive
19	Ten-m	1	-0.568	-0.493	0.884	inactive
20	Ten-m	2	0.52	0.671	0.895	inactive
21	Gld2	1	0.557	0.937	-3.26	inactive
22	Gld2	2	-1.33	-2.31	0.154	inactive
23	cort	1	1.02	0.402	1.24	inactive
24	cort	2	-2.45	-1.49	-0.297	inactive
25	tho2	1	-0.0744	-0.358	-0.0421	inactive
26	tho2	2	-0.748	1.23	-0.291	inactive
27	Sr-CII	1	-1.34	-4.87	0.101	inactive
28	Sr-CII	2	1.23	-0.069	0.0283	inactive
29	CG14011	1	0.617	0.719	0.379	inactive
30	CG14011	2	0.611	-0.974	0.649	inactive
31	lncRNA:bxd	1	-1.2	-0.638	-0.0929	inactive
32	lncRNA:bxd	2	-0.887	-1.07	-1.46	inactive
33	lncRNA:bxd	3	-0.871	0.0741	-0.818	inactive
34	CG2964	1	-1.19	0.442	0.323	inactive
35	Gr94a	1	0.318	1.24	0.696	inactive
36	CG18095	1	-0.622	-1.73	-1.12	inactive
37	GstD8	1	-1.51	0.811	0.0627	inactive
38	GstD8	2	-0.674	0.726	-0.196	inactive
39	sing	1	0.411	0.569	0.723	inactive
40	CG8202	1	0.906	-0.0263	-2.8	inactive
41	hkb	1	1.21	0.171	1.36	inactive
42	hkb	2	-1.13	-0.92	-0.678	inactive
43	rdhB	1	-0.385	-0.379	1.17	inactive
44	cib	1	-1.17	0.00881	-1.25	inactive
45	dsh	1	0.244	-0.122	1.01	inactive
46	dsh	2	0.409	-0.99	-1.61	inactive
47	nolo	1	-0.807	0.629	-5.22	inactive
48	nolo	2	-0.0489	0.633	1.76	inactive
49	nolo	3	0.155	0.31	0.874	inactive
50	CG42728	1	-1.6	0.856	-0.669	inactive
51	CG5757	1	-1.04	0.55	-0.559	inactive
52	M1BP	1	1.55	0.653	0.923	inactive
53	M1BP	2	1.83	-0.0778	-0.103	inactive
54	Nmd3	1	0.531	0.374	-2.44	inactive
55	Nmd3	2	-0.992	-1.31	-0.843	inactive
56	Lcp65Af	1	0.0215	0.0173	-0.0794	inactive
57	Lcp65Af	2	1.31	-0.0324	0.917	inactive
58	U4-U6-60K	1	-0.978	-1.68	-0.612	inactive
59	CG12507	1	0.234	1.07	-0.836	inactive
60	CG10663	1	-0.168	0.319	0.921	inactive
61	CG31926	1	0.972	-0.7	0.301	inactive
62	CG31926	2	-0.375	0.338	-0.175	inactive
63	C1GalTA	1	0.207	0.737	-0.115	inactive
64	CG31609	1	0.311	-0.0112	-0.265	inactive
65	CG45105	1	2.22	3.63	4.1	active
66	CG45105	2	-0.755	0.482	-1.68	inactive
67	CG45105	3	0.465	-5.28	1.55	inactive
68	CG31793	1	-0.181	0.561	0.00768	inactive
69	CG31793	2	0.559	-0.498	0.746	inactive
70	CG18745	1	-2.31	-3.11	0.377	inactive
71	CG18745	2	-0.283	0.912	0.00563	inactive
72	CG1701	1	-0.0704	0.0111	0.0789	inactive
73	unc-13-4A	1	-8.16	0.0994	0.577	inactive
74	unc-13-4A	2	0.829	0.51	0.489	inactive
75	unc-13-4A	3	-0.172	-0.706	-0.539	inactive
76	CG11722	1	-5.88	-0.511	-1.23	inactive
77	CG17672	1	2.32	2.7	1.13	inactive
78	CG17672	2	0.459	-0.811	0.221	inactive
79	CecC	1	-1.27	0.681	-1.11	inactive
80	Vps15	1	1.62	0.962	0.963	inactive
81	CAH9	1	0.709	-2.34	-0.368	inactive
82	CAH9	2	-0.203	-0.416	0.328	inactive
83	Kul	1	-0.0791	0.103	1.05	inactive
84	Kul	2	-1.26	-0.246	0.156	inactive
85	CG32812	1	0.479	0.4	0.199	inactive
86	CG13561	1	0.108	0.838	0.915	inactive
87	CG13308	1	1.59	0.678	0.704	inactive

Part of the list above, reformatted.
{"gene":"CG14417","reagent":1,"Wolbachia per cell robust z, rep 1":0.56,"Wolbachia per cell robust z, rep 2":0.298,"Wolbachia per cell robust z, rep 3":0.275,"activity call":"inactive"}
{"gene":"CG1440","reagent":1,"Wolbachia per cell robust z, rep 1":0.934,"Wolbachia per cell robust z, rep 2":1.12,"Wolbachia per cell robust z, rep 3":-0.926,"activity call":"inactive"}
{"gene":"Wdr81","reagent":1,"Wolbachia per cell robust z, rep 1":-5.62,"Wolbachia per cell robust z, rep 2":1.05,"Wolbachia per cell robust z, rep 3":-6.93,"activity call":"active"}
{"gene":"Wdr81","reagent":2,"Wolbachia per cell robust z, rep 1":-4.09,"Wolbachia per cell robust z, rep 2":0.538,"Wolbachia per cell robust z, rep 3":-0.907,"activity call":"inactive"}
{"gene":"CG9855","reagent":1,"Wolbachia per cell robust z, rep 1":0.42,"Wolbachia per cell robust z, rep 2":1.74,"Wolbachia per cell robust z, rep 3":1.13,"activity call":"inactive"}
{"gene":"CG9855","reagent":2,"Wolbachia per cell robust z, rep 1":0.702,"Wolbachia per cell robust z, rep 2":-0.0985,"Wolbachia per cell robust z, rep 3":-0.498,"activity call":"inactive"}
{"gene":"CG9855","reagent":3,"Wolbachia per cell robust z, rep 1":0.356,"Wolbachia per cell robust z, rep 2":-4.27,"Wolbachia per cell robust z, rep 3":-0.489,"activity call":"inactive"}
